Anti-infective test results gathered from many reports (values: NIAID ChemDB through PubChem).

Common to all: toxicity to cultured cells; cells: C8166; endpoint: CC50

Neighbouring rows are from separate reports. CCn is the concentration with n% toxicity to the cells. An empty or dashed field is not shown.

structure	read by	value
N#Cc1ccc2c(c1)cc1n2-c2ccccc2NC1c1ccc([N+](=O)[O-])cc1	MTT	>200 µg/mL
O=C(N/N=C/c1cn(S(=O)(=O)c2cccc([N+](=O)[O-])c2)c2ccccc12)c1ccccc1	MTT	27.09 µg/mL
C=C(C)[C@@]12OC3(c4ccccc4)O[C@@H]1[C@@H]1[C@@H]4O[C@]4(C)[C@@H](O)[C@@]4(O)[C@@H](C[C@H](C)[C@@H]4O)[C@@]1(O3)[C@H](C)[C@@H]2OCc1ccccc1	MTT	0.0301 µM
CN1CCN(c2ccnc3nc(CN(CCCCN)Cc4ncccc4Br)[nH]c23)CC1	MTT	>10 µM
OC[C@@H]1CC[C@H](n2cnc3c(NC4CC4)cc(Cl)nc32)O1		400 µM
COC(=O)C[C@](O)(Cc1ccc(O)c(OC)c1)C(=O)OC	MTT	>200 µg/mL
C=C(C)OCC12O[C@@]3([C@@H]1OC(C)=O)[C@@H](OC(C)=O)[C@@H](C)C[C@H]3[C@]1(O)[C@H]([C@@H](OC(C)=O)[C@](O)(C(=C)C)[C@@H](OCc3ccccc3)[C@H]1C)[C@@H]2OC(C)=O	MTT	>0.24 µM
CNc1cc(Cl)nc2c1ncn2[C@H]1CC[C@@H](CO)O1		800 µM
C/C(=N\NC(=O)c1ccccc1)c1cn(S(=O)(=O)c2ccccc2)c2ccccc12	MTT	>200 µg/mL
Cc1ccccc1CN(CCCCN)Cc1nc2nccc(N3CCN(C)CC3)c2[nH]1	MTT	>10 µM
CCCOP(=O)(OCCC)OC[C@H]1O[C@@H](n2cc(C)c(=O)[nH]c2=O)C[C@@H]1OCC		>100 µM
O=c1ccn([C@@H]2O[C@H](CO)[C@@H](F)[C@@H]2F)c(=O)[nH]1		>100 µM
COc1cc([C@H]2OC[C@H]3[C@@H]2CO[C@@H]3c2cc(OC)c(O[C@@H]3O[C@H](O)[C@@H](O)[C@H](O)[C@H]3O)c(OC)c2)cc(OC)c1O	MTT	>200 µg/mL
OC[C@@H]1CC[C@H](n2cnc3c(NC4CCCC4)ccnc32)O1		200 µM
Cc1c2n(c3ccccc13)-c1ccccc1NC2c1ccc(O)cc1	MTT	68.59 µg/mL
COc1cc([C@H]2c3cc(O)c(OC)cc3C[C@H]3COC[C@@H]32)ccc1O	MTT	>200 µg/mL
CCCCCCCCCCCCCCCCCCOP(=O)([O-])OCC[NH2+]C		>100 µM
COc1ccc(S(=O)(=O)n2cc(/C=N/NC(=O)c3ccccc3)c3ccccc32)cc1	MTT	192 µg/mL
C.NCCCCN(Cc1nc2ccccc2[nH]1)C1CCCn2ccnc21	MTT	>10 µM
CCCOP(=O)(OCCC)OC[C@H]1O[C@@H](n2cc(C)c(=O)[nH]c2=O)C[C@@H]1OC(C)=O		>100 µM
COc1cc(C(=O)C(C)c2ccc(O)c(OC)c2)ccc1O	MTT	>200 µg/mL
CC(=O)O[C@H]1[C@H](OC(C)=O)[C@]2(C)O[C@@]3(COC(=O)C3)[C@@H](OC(=O)c3ccccc3)C[C@]2(C)[C@H]2CCC[C@]3(CO3)[C@]12C	MTT	>200 µg/mL
CC(C)CC(=O)O[C@@H]1/C=C/C=C/C(=O)O[C@H]2[C@@H](C)C[C@@H]3[C@]2(O)[C@H](O)[C@@]2(CO)O[C@H]2[C@H]2[C@@H](O)[C@@](O)([C@H]4OC(C)(c5ccccc5)O[C@]23[C@@H]4C)[C@](C)(O)C[C@H]2CC[C@H]1[C@H]2C	MTT	0.0222 µM
CCCOP(=O)(OCCC)OC[C@H]1O[C@@H](n2cc(C)c(=O)[nH]c2=O)C[C@@H]1OS(C)(=O)=O		>100 µM
COc1cc(C(CO)C(O)c2cc(OC)c(O)c(OC)c2)ccc1O	MTT	>200 µg/mL
Cc1cccc2c1cc1n2-c2ccccc2NC1c1ccccc1	MTT	112 µg/mL
CC(=O)O[C@H]1C[C@]2(C)O[C@]3(COC(=O)C3)[C@@H](OC(=O)c3ccccc3)[C@H](OC(C)=O)[C@]2(C)[C@H]2CCC[C@]3(CO3)[C@]12C	MTT	>200 µg/mL
O=[N+]([O-])c1ccc(C2Nc3ccccc3-n3c2cc2ccccc23)cc1	MTT	131 µg/mL
COc1ccc(S(=O)(=O)n2cc(/C(C)=N/NC(=O)c3ccccc3)c3ccccc32)cc1	MTT	1.3 µg/mL
CC(=O)O[C@H]1C[C@]2(C)[C@H]3[C@H](OC(C)=O)CC[C@]4(CO4)[C@]3(C)[C@@H](OC(C)=O)[C@H](OC(=O)c3ccccc3)[C@]2(C)O[C@]12COC(=O)C2	MTT	>200 µg/mL
Cc1cn([C@H]2C[C@H](N=[N+]=[N-])[C@@H](CO)O2)c(=O)[nH]c1=O	MTT	1.32 µM
Cc1ccc2c(/C=N/NC(=O)c3ccccc3)cn(S(=O)(=O)c3cccc([N+](=O)[O-])c3)c2c1	MTT	119 µg/mL
CN(Cc1nc2ccccc2[nH]1)Cc1ncccc1Br	MTT	>10 µM
Cc1ccc2cc3n(c2c1)-c1ccccc1NC3c1ccc(O)cc1	MTT	116 µg/mL
O=C(N/N=C/c1cn(S(=O)(=O)c2ccc(Cl)c([N+](=O)[O-])c2)c2ccccc12)c1ccccc1	MTT	1.77 µg/mL
COc1cc(OC2O[C@H](COC3O[C@@H](C)[C@H](O)[C@@H](O)[C@H]3O)[C@@H](O)[C@H](O)[C@H]2O)c2c(C)c3c(=O)oc(C)cc3c(OC)c2c1		100 µg/mL
C=C(C)[C@@]1(O)[C@@H]2OC3(c4ccccc4)O[C@H]1[C@@H](C)[C@@]1(O3)[C@H]2[C@H](OC(C)=O)[C@@]2(C)O[C@@]3([C@@H]2OCc2ccccc2)[C@@H](OC(C)=O)[C@@H](C)C[C@@]13C	MTT	>0.2967 µM
Nc1nc(=O)n([C@@H]2CC[C@H](CO)O2)cc1F		>2.18 µM
C/C(=N\NC(=O)c1ccccc1)c1cn(S(=O)(=O)c2ccc(Cl)cc2)c2cc(C)ccc12	MTT	96.71 µg/mL
Cc1cccnc1CN(Cc1nc2nccc(N3CCN(C)CC3)c2[nH]1)Cc1ncccc1C	MTT	1.8 µM
CC/C(=N\NC(=O)c1ccccc1)c1cn(S(=O)(=O)c2ccccc2)c2ccccc12	MTT	>200 µg/mL
CC(C)c1cccnc1CN(CCCCN)Cc1nc2nccc(N3CCN(C)CC3)c2[nH]1	MTT	>10 µM
CCCOP(=O)(OCCC)OC[C@H]1O[C@@H](n2cc(C)c(=O)[nH]c2=O)C[C@@H]1O		>100 µM

A second listing of 4 rows from above:

| structure | read by | value |
|---|---|---|
| Cc1cccnc1CN(Cc1nc2nccc(N3CCN(C)CC3)c2[nH]1)Cc1ncccc1C | MTT | 1.8 µM |
| C=C(C)[C@@]12OC3(c4ccccc4)O[C@@H]1[C@@H]1[C@@H]4O[C@]4(C)[C@@H](O)[C@@]4(O)[C@@H](C[C@H](C)[C@@H]4O)[C@@]1(O3)[C@H](C)[C@@H]2OCc1ccccc1 | MTT | 0.0301 µM |
| C=C(C)[C@@]1(O)[C@@H]2OC3(c4ccccc4)O[C@H]1[C@@H](C)[C@@]1(O3)[C@H]2[C@H](OC(C)=O)[C@@]2(C)O[C@@]3([C@@H]2OCc2ccccc2)[C@@H](OC(C)=O)[C@@H](C)C[C@@]13C | MTT | >0.2967 µM |
| CN1CCN(c2ccnc3nc(CN(CCCCN)Cc4ncccc4Br)[nH]c23)CC1 | MTT | >10 µM |